Measured values as given in ChEMBL document CHEMBL1149314, “Synthesis of AZT 5'-triphosphate mimics and their inhibitory effects on HIV-1 reverse transcriptase” (J Med Chem, 2004).

Tested on: Human immunodeficiency virus 1
Assay: Inhibition of HIV1 reverse transcriptase at 0.5 uM
In short: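 HIV reverse transcriptase (type B, 66 kDa subunit) at 2 nM with 1 µg/mL primed poly(A) RNA and 5 µM dTTP, in 50 mM Tris-HCl pH 8.1, 6.5 mM MgCl2, 100 mM NaCl and 10 mM DTT. Compounds were tested up to 500 µM final. Reactions were started with enzyme, run 10 min at 37 °C and stopped with EDTA. DNA was read by PicoGreen fluorescence (ex 480/em 538 nm), with no-enzyme or no-dTTP blanks. Percent inhibition was blank-corrected; Ki came from titration fitted to a competitive model.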

For Cc1cn([C@@H]2C[C@@H](N=[N+]=[N-])[C@H](COP(=O)(O)C(F)(F)P(=O)(O)OP(C)(=O)O)O2)c(=O)[nH]c1=O, which inhibition is on record?
The inhibition was 14.2%.
